# Laboratory results taken from PubChem BioAssay AID1053175 (ICCB-Longwood Screening Facility, Harvard Medical School, 2014).
# Values joined by “and” are separate entries in the source; they are usually repeats but may differ in a detail not shown here. Equal entries are not always repeated. The entries are a selection whose mix differs from that of the whole data set. Active and inactive are the calls of the source.
# Assay: antibacterial activity against Escherichia coli – OD600, primary screen (AID 1053175)
# Settings: Escherichia coli growth, OD600, 23 h; stronger effect = lower value
row,Structure (SMILES),OD600 absorbance
1,O=C(OCCCN1CCCC1)C(O)(c1ccccc1)C1CCCCC1 (stereo not drawn),inactive: 0.639
2,Cc1ccc(NP(=O)(Oc2ccccc2)Oc2ccccc2)nc1,inactive: 0.712
3,CP(=O)(Oc1ccccc1)N1CCOC1=O (stereo not drawn),inactive: 0.81
4,CCc1nc2c(n1)c1c(non1O)c1c2no[n+]1[O-],inactive: 0.66
5,O=[N+]([O-])c1cc([N+](=O)[O-])c(CCNc2ccccc2)c([N+](=O)[O-])c1,inactive: 0.631
6,CCc1ccc(OP(C)(=O)Nc2cccnc2)cc1 (stereo not drawn),inactive: 0.7
7,CC(C)(C)c1ccc(OP(C)(=O)O)cc1,inactive: 0.713
8,Nc1ccc([As](=O)(O)c2ccc(N)cc2)cc1,inactive: 0.703
9,COc1ccccc1OP(C)(=O)Nc1ccccc1Br (stereo not drawn),inactive: 0.683
10,C[N+]1=C2C=CC=CC=C2SC12C([N+](=O)[O-])=CC([N+](=O)[O-])=C[C-]2[N+](=O)[O-] (stereo not drawn),inactive: 0.618
11,CP(=O)(Nc1ccc(Cl)cc1)Oc1ccc(F)cc1 (stereo not drawn),inactive: 0.691
12,CN(C)C(=O)c1c([N+](=O)[O-])cc([N+](=O)[O-])cc1[N+](=O)[O-],inactive: 0.556
13,CN(C(=O)Cc1ccc(Cl)c(Cl)c1)C1CCCCC1N1CCCC1 (stereo not drawn),inactive: 0.635 and inactive: 0.632 and inactive: 0.673
14,CC1CCN(C(=O)Oc2c(Cl)cc(Cl)c3cccnc23)CC1,inactive: 0.657
15,CP(=O)(Nc1ccc(SC(F)(F)F)cc1)Oc1ccc(F)cc1 (stereo not drawn),inactive: 0.664
16,CC(C)C(=O)NC(Sc1ccccc1)C(Cl)(Cl)Cl (stereo not drawn),inactive: 0.706
17,O=P(Nc1nccs1)(c1ccccc1)c1ccccc1,inactive: 0.684
18,CCNC(=S)N=C(N)N[N+](=O)[O-],inactive: 0.622
19,CCOP(C)(=S)SCC(=O)NC(C)(CC)C(=O)O (stereo not drawn),inactive: 0.659
20,c1nnnn1CCn1cnnn1,inactive: 0.736
21,CP(=O)(Nc1ccc2c(c1)OCCO2)Oc1ccccc1 (stereo not drawn),inactive: 0.731
22,Cc1ccccc1NP(C)(=O)Nc1ccccc1C,inactive: 0.738
23,COc1ccc(OP(C)(=O)Nc2cccc(Br)c2)cc1 (stereo not drawn),inactive: 0.701
24,CC(C)C=NN=C(N)N[N+](=O)[O-],inactive: 0.703
25,COc1ccc(N)c([N+](=O)[O-])c1[N+](=O)[O-],inactive: 0.611
26,C=CCN1CCN(CCOC(=O)C(O)(c2ccccc2)c2ccccc2)CC1,inactive: 0.688
27,O=P(Nc1ccccn1)(c1ccc(Br)cc1)c1ccc(Br)cc1,inactive: 0.691
28,CN(C)C1(CNC(=O)c2ccc(Cl)c(S(N)(=O)=O)c2)CCCCC1,inactive: 0.671
